## Sequence variants of PSTVd stem 15 after infection

The measurements come from Wu et al. 2024 (doi:10.1371/journal.ppat.1012142).

PSTVd intermediate strain, stem 15: wild type CUGGAGCGAUCGCUUCGG, pool pattern CUGGAGCGAUNGNNUNNG; upper and lower strand joined, each 5' to 3', the first 9 letters being the upper strand.

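A pool of all variants was put on leaves of three Nicotiana benthamiana plants. Progeny were sequenced from the inoculated region (day 5), the margin of the inoculated leaf (day 10) and systemic leaves (day 12).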

Numbers give reads per thousand; 0 = not seen among the reads, higher = more abundant. Each value is the mean of three plants. "Pool" is the share in the plasmid pool used as inoculum, on the same scale. The inoculated region was read from the minus strand, the other sites from the plus strand. Wild type was 10.2 per thousand in the pool and the most common sequence in every sample (inoculated region 285, 367, 312; leaf margin 785, 865, 782; systemic leaves 854, 898, 915). With 36,693-63,082 reads a sample, very low values are single reads. The authors trace changes outside the varied positions to PCR and sequencing errors or to mutation in the plant; presence does not show that a variant is infectious alone.

sequence	pool	inoculated region	leaf margin	systemic leaves
CUGGAGCGAUAGAAUCCG	0.970	0.565	0.0213	0
CUGGAGCGAUUGGCUCUG	0.873	0.289	0.0503	0
CUGGAGCGAUCGGCUAUG	0.808	0.316	0.0298	0
CUGGAGCGAUUGGGUACG	0.808	0.176	0.0229	0
CUGGAGCGAUGGGGUGUG	0.970	0.250	0.0298	0
CUGGAGCGAUCGAUUUGG	0.937	0.249	0.0334	0
CUGGAGCGAUCGAGUCUG	0.711	0.282	0.0276	0
CUGGAGCGAUUGGGUUCG	0.873	0.266	0.0282	0
CUGGAGCGAUAGCUUAUG	2.65	0.999	0.0726	0.199
CUGGAGCGAUUGAAUAUG	0.840	0.380	0.0425	0
CAGGAGCGAUUGAGUUGG	0.0162	0	0	0
CUGGAGCGAUCGUGUCUG	0.889	0.266	0.0329	0
CUGGUGCGAUAGAAUUGG	0.0162	0	0	0
CUGGAGCGAUGGUCUCGG	0.824	0.262	0.0265	0
CUGGAGCGAUCGCAUAGG	0.937	0.370	0.0350	0
CUGGAGCGAUGGGGUGAG	0.824	0.307	0.0707	0
CUGGAGCGAUCGAAUUCG	0.824	0.278	0.0494	0
CUGGAGCGAUCGCCUAAG	0.970	0.305	0.0260	0
CUGGAGCGAUGGGCUUAG	0.776	1.39	0.00528	0
CUGGAGCGAUGGGGUCAG	0.986	0.271	0.0403	0
CUGGAGCGAUCGAGUACG	0.840	0.282	0.0207	0
CUGGAGCGAUAGAGUACG	0.711	0.302	0.0381	0
CUGGAGCGAUAGCUUUUG	0.808	0.280	0.0664	0
CUGGAGCGAUAGACUGUG	0.889	0.222	0.0282	0
CUGGAGCGAUUGGGUAAG	0.808	0.279	0.0356	0
CUGGAGCGAUUGUGUUGG	0.824	1.53	0.336	0
CUGGAGCGAUCGGCUUGG	1.00	0.894	0.0207	0
CUGGAGCGAUAGCUUCUG	1.97	1.07	0.0547	0.0206
CUGGAGCGAUGGUCUAGG	0.711	0.272	0.0287	0.502
CUGGAGCGAUUGCUUUAG	2.41	3.91	0.690	0.720
CUCGAGUGAUGGUUUAUG	0.0162	0	0	0
CUGGAGCGAUAGGGUGUG	0.873	0.284	0.0403	0
CUGGAGCGAUUGGUUCUG	0.921	0.301	0.0478	0
AUGGAGCGAUAGCAUUCG	0.0162	0	0	0
CUGGAGCGAUUGUCUAUG	1.94	1.83	0.509	0.760
CUGGAGCGAUUGACUUCG	1.07	1.54	0.622	0.437
CUGGAGCGAUAGGGUGCG	0.760	0.297	0.0748	0
CUGGAGCGAUGGCCUGCG	0.889	0.256	0.0488	0
CUGGAGCGAUGGCCUAUG	0.840	0.294	0.0265	0.00739
CUGGAGCGAUAGCUUCAG	0.857	0.368	0.0296	0
AUGGAGCGAUCGGAUGAG	0.0162	0	0	0
CUGGAGCGAUAGAUUCAG	1.07	0.345	0.0450	0